Publication PMC9410468 (Marine Drugs, 2022)

Tested on: other nAChR subtypes
Assay: two-electrode voltage clamp (TEVC), inhibition of ACh-evoked current in Xenopus oocytes, other nAChR subtypes
Details: 10 μM TxID-F, ACh 100 μM (α7 200 μM; α1β1δε and α9α10 10 μM), -70 mV, 3–6 separate oocytes

CC[C@H](C)[C@@H]1NC(=O)[C@@H]2CCCN2C(=O)[C@H](CO)NC(=O)[C@H](CCSC)NC(=O)[C@H](C)NC(=O)[C@H](CO)NC(=O)[C@@H]2CSSC[C@H](NC(=O)CNC(=O)c3ccc(-c4c5ccc(=[N+](C)C)cc-5oc5cc(N(C)C)ccc45)c(C(=O)[O-])c3)C(=O)N[C@@H](CSSC[C@@H](C(N)=O)NC1=O)C(=O)N[C@@H](CO)C(=O)N[C@@H](Cc1c[nH]cn1)C(=O)N1CCC[C@H]1C(=O)N[C@@H](C(C)C)C(=O)N2 [TxID-F]
inhibitory activity at the other nAChR subtypes (in words): almost no activity
